Measured values taken from paper PMC6410080 (Viruses, 2019).

System: SFV internalisation
Test: SFV internalisation assay (subtilisin resistance)
Format: cell-based, Semliki Forest virus
Conditions: HeLa Kyoto, 10 μM, 20, 40 or 60 min at 37 °C

In the case of CC(C)(C)c1cc(C=C(C#N)C#N)cc(C(C)(C)C)c1O [Tyrphostin A9], the “Kinetics of SFV internalisation (subtilisin resistance)” value is reported as “remained lower compared to untreated control”.
